Reference: PubChem BioAssay AID588501 (NMMLSC, 2011)
The entries are a selection whose mix differs from that of the whole data set. Active and inactive are the calls of the source. No stated cut-off is given here; in the data, active means inhibition above about 30%; inconclusive means no clear call, values can overlap the other calls; inactive means below that.

The compounds below were run against Lethal factor (Bacillus anthracis) (UniProt P15917) (assay: Bacillus anthracis LF protease inhibitors, primary screen, biochemical, multiplex microsphere, MLPCN library (AID 588501; further: plate controls were buffer without enzyme for full effect and enzyme alone for no effect)). Conditions: multiplex microsphere protease cleavage assay, at 10 µM, stronger effect = higher value.
For `CN(C)c1ccc(C(=O)NCC2(N3CCCCC3)CCCCC2)cc1`, the inhibition was inactive: -4.2%.
For `Cn1c(=O)[nH]cc(N(CCCl)CCCl)c1=O`, the inhibition was inactive: -5.9%.
In the case of `O=C(NCC1(N2CCCCC2)CCCCC1)c1ccco1`, the inhibition is reported as inactive: -0.7%.
For `COc1ccc(C(c2nnnn2C2CCCCC2)N2CCC(n3c(=O)[nH]c4ccccc43)CC2)cc1` (configuration not stated), the inhibition was inactive: -0.2%.
In the case of `CCN1CCC(Nc2cccc(F)c2)CC1`, the inhibition is reported as inactive: -0.3%.
For `CC(C)(C)n1nnnc1C(c1ccnc2ccccc12)N1CCC(n2c(=O)[nH]c3ccccc32)CC1` (configuration not stated), the inhibition was inactive: 14.7%.
With `Cc1ccccc1NC1(C#N)CCN(Cc2ccccc2)CC1` the inhibition was inactive: 2.6%.
In the case of `Fc1ccccc1NC1CCN(Cc2ccccc2)CC1`, the inhibition is reported as inactive: 1.9%.
`Cc1ccc(C(=O)NCC2(N3CCCCC3)CCCCC2)o1` was tested, and the inhibition was inactive: -0.5%.
For `Cc1ccc(NC2(C#N)CCN(Cc3ccccc3)CC2)cc1`, the inhibition was inactive: 0.8%.
For `CCC(c1nnnn1C1CCCCC1)N1CCC(n2c(=O)[nH]c3ccccc32)CC1` (configuration not stated), the inhibition was inactive: -3.7%.
In the case of `COc1cccc(C(c2nnnn2C2CCCCC2)N2CCC(n3c(=O)[nH]c4ccccc43)CC2)c1OC` (configuration not stated), the inhibition is reported as inactive: 4.5%.
For `CC(=O)N(c1ccccc1)C1CCNCC1`, the inhibition was inactive: -6.9%.
In the case of `COc1cc(OC)cc(C(=O)NCC2(N3CCCCC3)CCCCC2)c1`, the inhibition is reported as inactive: 9.7%.
`O=c1[nH]c2ccccc2n1C1CCN(C(c2ccnc3ccccc23)c2nnnn2C2CCCCC2)CC1` (configuration not stated) was tested, and the inhibition was inactive: -1.5%.
For `CN1CCC(Nc2ccc(Cl)cc2)CC1`, the inhibition was inactive: 1.8%.
In the case of `COc1cc(OC)cc(C(=O)NCC2(N3CCOCC3)CCCCC2)c1`, the inhibition is reported as inactive: -2.8%.
With `COc1cccc(C(c2nnnn2C2CCCC2)N2CCC(n3c(=O)[nH]c4ccccc43)CC2)c1OC` (configuration not stated) the inhibition was inactive: 7.7%.
`COc1cccc(C(=O)N(c2cc(C)cc(C)c2)C2CCN(C(=O)OC(C)(C)C)CC2)c1` was tested, and the inhibition was inactive: 2.7%.
With `CCC(CO)(C(=O)OC1CN2CCC1CC2)c1ccccc1` (configuration not stated) the inhibition was inactive: 0.1%.
With `O=C(O)C1(Nc2ccccc2)CCN(Cc2ccccc2)CC1` the inhibition was inactive: -0.5%.
With `NN(c1ccccc1)C1CCN(CCc2ccccc2)CC1` the inhibition was inactive: -2.1%.
In the case of `CC(C)(C)OC(=O)N1CCC(Nc2ccccc2)CC1`, the inhibition is reported as inactive: -2.8%.
In the case of `O=c1[nH]c2ccccc2n1C1CCN(C(c2cc3ccccc3o2)c2nnnn2C2CCCC2)CC1` (configuration not stated), the inhibition is reported as inactive: -2.5%.
In the case of `CCCOc1ccc(C(=O)NCC2(N(C)C)CCCCC2)cc1`, the inhibition is reported as inactive: 3.6%.
`CN1CCC(Nc2ccc(F)c(Cl)c2)CC1` was tested, and the inhibition was inactive: -1.2%.
For `CCOc1ncccc1C(=O)NCC1(N2CCOCC2)CCCCC1`, the inhibition was inactive: 0.7%.
With `O=c1[nH]c2ccccc2n1C1CCN(C(c2cccs2)c2nnnn2C2CCCC2)CC1` (configuration not stated) the inhibition was inactive: -0.5%.
With `O=C(OC1CN2CCC1CC2)C1c2ccccc2C=Cc2ccccc21` (configuration not stated) the inhibition was inactive: 0.8%.
In the case of `CCCCn1nnnc1C(c1cccc(OC)c1OC)N1CCC(n2c(=O)[nH]c3ccccc32)CC1` (configuration not stated), the inhibition is reported as inactive: 0.6%.
For `COc1cccc(C(c2nnnn2C(C)(C)C)N2CCC(n3c(=O)[nH]c4ccccc43)CC2)c1OC` (configuration not stated), the inhibition was inactive: 1.6%.
In the case of `N/C(=N\O)c1c(N)no[n+]1[O-]`, the inhibition is reported as inactive: 1%.
With `O=c1[nH]c2ccccc2n1C1CCN(C(c2cccs2)c2nnnn2C2CCCCC2)CC1` (configuration not stated) the inhibition was inactive: -17%.
`O=c1[nH]c2ccccc2n1C1CCN(C(c2ccnc3ccccc23)c2nnnn2C2CCCC2)CC1` (configuration not stated) was tested, and the inhibition was inactive: 4%.
For `COc1ccc(C(=O)NCC2(N3CCOCC3)CCCCC2)cc1OC`, the inhibition was inactive: -4%.
For `COc1cc(C(=O)NCC2(N3CCOCC3)CCCCC2)cc(OC)c1C`, the inhibition was inactive: 1.5%.
`CCCCn1nnnc1C(c1ccccc1)N1CCC(n2c(=O)[nH]c3ccccc32)CC1` (configuration not stated) was tested, and the inhibition was inactive: 0.2%.
For `O=C(NCC1(N2CCOCC2)CCCCC1)c1cc(Br)ccc1Cl`, the inhibition was inactive: 3.8%.
`CC(C)(C)n1nnnc1C(c1cccc2ccccc12)N1CCC(n2c(=O)[nH]c3ccccc32)CC1` (configuration not stated) was tested, and the inhibition was inactive: 3.6%.
For `CN(C)C1(CNC(=O)c2cccc(C#N)c2)CCCCC1`, the inhibition was inactive: 9.8%.
In the case of `O=c1[nH]c2ccccc2n1C1CCN(C(c2ccccc2)c2nnnn2C2CCCC2)CC1` (configuration not stated), the inhibition is reported as inactive: -5.7%.
For `CCCN1CCC(Nc2cc(OC)cc(OC)c2)CC1`, the inhibition was inactive: -11%.
In the case of `Cc1cc(N(CCCl)CCCl)ccc1C=O`, the inhibition is reported as inactive: 4%.
In the case of `c1ccc(CN2CCC(Nc3ccccc3)CC2)cc1`, the inhibition is reported as inactive: -0.2%.
For `N#Cc1ccc(C(=O)NCC2(N3CCCCC3)CCCCC2)cc1`, the inhibition was inactive: 2.8%.
In the case of `CC(C)(C)OC(=O)N1CCC(N(C(=O)c2ccccc2)c2ccc(Cl)cc2)CC1`, the inhibition is reported as inactive: -13%.
With `COc1cc(C(=O)NCC2(N3CCCCC3)CCCCC2)ccc1OC(F)F` the inhibition was inactive: -1.2%.
`O=C(NCC1(N2CCOCC2)CCCCC1)c1cc(=O)[nH]c2ccccc12` was tested, and the inhibition was inactive: -1.3%.
With `CN1CCN(CCOC(=O)C(O)(c2ccccc2)c2ccccc2)CC1` the inhibition was inactive: 10.6%.
For `COc1ccc(NC2CCN(C(=O)OC(C)(C)C)CC2)cc1`, the inhibition was inactive: -2.8%.
`CC(C)c1ccc(C(=O)NCC2(N3CCOCC3)CCCCC2)cc1` was tested, and the inhibition was inactive: -5.6%.
`CCCCn1nnnc1C(c1cccc2ccccc12)N1CCC(n2c(=O)[nH]c3ccccc32)CC1` (configuration not stated) was tested, and the inhibition was inactive: -6%.
For `O=C(NCC1(N2CCCCC2)CCCCC1)c1cccc(C(F)(F)F)c1`, the inhibition was inactive: -0.5%.
`O=c1[nH]c2ccccc2n1C1CCN(C(c2ccccc2OC(F)(F)F)c2nnnn2C2CCCC2)CC1` (configuration not stated) was tested, and the inhibition was inactive: 3.3%.
With `N#CC1(Nc2ccccc2)CCN(CCc2ccccc2)CC1` the inhibition was inactive: 1.5%.
In the case of `CCN1CCC(Nc2ccc(Cl)cc2)CC1`, the inhibition is reported as inactive: -14.9%.
With `O=C(NCC1(N2CCCCC2)CCCCC1)c1cccc([N+](=O)[O-])c1` the inhibition was inactive: -1.3%.
For `CSc1ccc(C(=O)NCC2(N3CCOCC3)CCCCC2)cc1`, the inhibition was inactive: 1.9%.
With `O=C(NCC1(N2CCCCC2)CCCCC1)c1ccc(OC(F)F)cc1` the inhibition was inactive: -0.1%.
`CC(C)(C)n1nnnc1C(c1ccccc1OC(F)(F)F)N1CCC(n2c(=O)[nH]c3ccccc32)CC1` (configuration not stated) was tested, and the inhibition was inactive: -0.3%.
`COc1ccc(C(c2nnnn2C2CCCC2)N2CCC(n3c(=O)[nH]c4ccccc43)CC2)cc1` (configuration not stated) was tested, and the inhibition was inactive: -0.4%.
In the case of `CCCOc1ccc(C(=O)NCC2(N(C)C)CCCCC2)cc1OC`, the inhibition is reported as inactive: -7.3%.
For `Cc1ccc(C(=O)NCC2(N(C)C)CCCCC2)o1`, the inhibition was inactive: 0.1%.
In the case of `CN1CCC(Nc2cccc(F)c2)CC1`, the inhibition is reported as inactive: -0.9%.
In the case of `O=C(NCC1(N2CCCCC2)CCCCC1)c1cncc(Br)c1`, the inhibition is reported as inactive: 0%.
In the case of `O=C(NCC1(N2CCOCC2)CCCCC1)c1cc(F)c(F)cc1Cl`, the inhibition is reported as inactive: -1.9%.
`CCC(c1nnnn1C(C)(C)C)N1CCC(n2c(=O)[nH]c3ccccc32)CC1` (configuration not stated) was tested, and the inhibition was inactive: -5.5%.
In the case of `COc1cc(OC)c(C(=O)NCC2(N(C)C)CCCCC2)cc1OC`, the inhibition is reported as inactive: -7.6%.
With `CCCCn1nnnc1C(c1ccnc2ccccc12)N1CCC(n2c(=O)[nH]c3ccccc32)CC1` (configuration not stated) the inhibition was inactive: 3.5%.
`CCCCn1nnnc1C(c1ccccc1OC(F)(F)F)N1CCC(n2c(=O)[nH]c3ccccc32)CC1` (configuration not stated) was tested, and the inhibition was inactive: 0.3%.
In the case of `CC(C)c1ccc(NC2CCN(C(=O)OC(C)(C)C)CC2)cc1`, the inhibition is reported as inactive: -3.7%.
`CN(C)c1cccc(C(=O)NCC2(N3CCCCC3)CCCCC2)c1` was tested, and the inhibition was inactive: 3%.
With `COc1ccc(CN(CCCl)CCCl)cc1Cl` the inhibition was inactive: 0.3%.
In the case of `COc1ccc(Cl)cc1C(=O)NCC1(N2CCOCC2)CCCCC1`, the inhibition is reported as inactive: 4.6%.
For `O=C(NCC1(N2CCCCC2)CCCCC1)c1ccc(Cl)s1`, the inhibition was inactive: -2.8%.
In the case of `N#CC1(Nc2ccccc2)CCN(Cc2ccccc2)CC1`, the inhibition is reported as inactive: 10.6%.
For `O=C(OC1CN2CCC1CC2)C1c2ccccc2Oc2ccccc21` (configuration not stated), the inhibition was inactive: -3.9%.
`O=c1[nH]c2ccccc2n1C1CCN(C(c2cc3ccccc3o2)c2nnnn2C2CCCCC2)CC1` (configuration not stated) was tested, and the inhibition was inactive: -4.7%.
For `CCCCn1nnnc1C(c1ccc(OC)cc1)N1CCC(n2c(=O)[nH]c3ccccc32)CC1` (configuration not stated), the inhibition was inactive: 9.7%.
In the case of `CCOC(=O)N1CCC(Nc2ccc(OC)cc2)CC1`, the inhibition is reported as inactive: -1%.
`Cc1cc(C)cc(N(C(=O)c2ccccc2)C2CCN(C(=O)OC(C)(C)C)CC2)c1` was tested, and the inhibition was inactive: -14.7%.
`O=C(NCC1(N2CCCCC2)CCCCC1)c1ccc(Cl)nc1` was tested, and the inhibition was inactive: -1.6%.
`O=c1[nH]c2ccccc2n1C1CCN(C(c2ccccc2OC(F)(F)F)c2nnnn2C2CCCCC2)CC1` (configuration not stated) was tested, and the inhibition was inactive: 0.3%.
With `O=C(NCC1(N2CCOCC2)CCCCC1)c1cc2ccccc2o1` the inhibition was inactive: -15.5%.
For `Cc1cccc(NC2(C#N)CCN(Cc3ccccc3)CC2)c1`, the inhibition was inactive: -4.2%.
In the case of `CSc1ccccc1C(=O)NCC1(N2CCCCC2)CCCCC1`, the inhibition is reported as inactive: -5.4%.
For `COc1ccc(C(=O)NCC2(N3CCCCC3)CCCCC2)c(OC)c1OC`, the inhibition was inactive: -1.4%.
In the case of `CC(C)(C)OC(=O)N1CCC(N(C(=O)c2ccccc2)c2ccc(F)cc2)CC1`, the inhibition is reported as inactive: -8.4%.
For `CCC(c1nnnn1C1CCCC1)N1CCC(n2c(=O)[nH]c3ccccc32)CC1` (configuration not stated), the inhibition was inactive: -6%.
`COc1ccc(C(=O)NCC2(N3CCCCC3)CCCCC2)cc1` was tested, and the inhibition was inactive: 0.3%.
With `CCCCn1nnnc1C(CC)N1CCC(n2c(=O)[nH]c3ccccc32)CC1` (configuration not stated) the inhibition was inactive: -2.9%.
For `O=C(NCC1(N2CCCCC2)CCCCC1)c1cccs1`, the inhibition was inactive: 5.3%.
`CCCCn1nnnc1C(c1cccs1)N1CCC(n2c(=O)[nH]c3ccccc32)CC1` (configuration not stated) was tested, and the inhibition was inactive: 3.7%.
With `O=C(NCC1(N2CCCCC2)CCCCC1)c1ccc(=O)[nH]c1` the inhibition was inactive: 0.9%.
With `CCOC(=O)N1CCC(Nc2cccc(C)c2)CC1` the inhibition was inactive: -4.1%.
In the case of `COc1cc(C(=O)NCC2(N(C)C)CCCCC2)ccc1OC(F)F`, the inhibition is reported as inactive: -5.5%.
In the case of `O=c1[nH]c2ccccc2n1C1CCN(C(c2cccc3ccccc23)c2nnnn2C2CCCC2)CC1` (configuration not stated), the inhibition is reported as inactive: -0.7%.
In the case of `O=c1[nH]c2ccccc2n1C1CCN(C(c2ccccc2)c2nnnn2C2CCCCC2)CC1` (configuration not stated), the inhibition is reported as inactive: 2.5%.
`COc1ccc(NC2CCN(CCc3ccccc3)CC2)c(OC)c1` was tested, and the inhibition was inactive: -8.4%.
In the case of `CCOC(=O)N1CCC(Nc2ccc(F)cc2)CC1`, the inhibition is reported as inactive: 17.2%.
With `CCCCn1nnnc1C(c1cc2ccccc2o1)N1CCC(n2c(=O)[nH]c3ccccc32)CC1` (configuration not stated) the inhibition was inactive: -3.4%.
In the case of `O=P1(N(CCCl)CCCl)SCCCS1`, the inhibition is reported as inactive: -9.3%.
`CCCCOc1ccc(C(=O)NCC2(N3CCOCC3)CCCCC2)cc1` was tested, and the inhibition was inactive: 7.4%.
`O=C(NCC1(N2CCCCC2)CCCCC1)c1ccc(F)cc1` was tested, and the inhibition was inactive: -1.3%.
`O=C1CCN(Cc2ccccc2)CC1` was tested, and the inhibition was inactive: -7.9%.
For `CC(C)(C)n1nnnc1C(c1ccccc1)N1CCC(n2c(=O)[nH]c3ccccc32)CC1` (configuration not stated), the inhibition was inactive: 2.6%.
For `CCOc1ccc(C)cc1CN(CCCl)CCCl`, the inhibition was inactive: -0.2%.
